{"source": "the supplement of paper PMC12637763", "key": {"antibody 10-1074 [1]": {"target": "antibody 10-1074", "assay": "neutralization IC50; higher = virus less sensitive to the antibody", "experimental": "(§1)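 Pseudovirus bearing the Env chain mixed with antibody, from 50 µg/ml in fivefold dilutions, on TZM-bl reporter cells, in duplicate.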"}, "antibody 3BNC117 [2]": {"target": "antibody 3BNC117", "assay": "neutralization IC50; higher = virus less sensitive to the antibody", "experimental": "as §1"}, "antibody 10-1074 [3]": {"target": "antibody 10-1074", "assay": "neutralization IC80; higher = virus less sensitive to the antibody", "experimental": "as §1"}, "antibody 3BNC117 [4]": {"target": "antibody 3BNC117", "assay": "neutralization IC80; higher = virus less sensitive to the antibody", "experimental": "as §1"}}, "note": "Some of the results follow. Env chains of viruses from a treatment-interruption trial, translated from the printed DNA. IC50 / IC80 of two broadly neutralizing antibodies; lower = more sensitive virus; >50 µg/ml means not reached and <0.001 µg/ml is below the lowest dose. No active / inactive call.", "data": [{"binder": "HIV-1 Env, rebound clone, antibody arm (protein) MRVKGIRRNYQHLWKWGIMLLGMLMICSAVDNLWVTVYYGVPVWKEATTTLFCASDAKSYDTEAHNVWATHACVPTDPNPQEVKLENVTENFNMWKNNMVEQMHEDIISLWDQSLKPCVRLTPLCVTLNCNDVNSTRTVNTTMNSTTMSSEVDKGEIKNCSFNITTGMGIKNEKEYALFYKLDVVQIDNTSYRLISCNTSVVTQACPKISFEPIPIHYCAPAGFAILKCNDKKFNGTGPCKNVSTVQCTHGIRPVISTQLLLNGSLAEEEVIIRSENITDNAKTIIVQLNETVKINCTRPHNNTRKGIHMGPGKAFFTTGNVIGDIRQAHCNISGAEWKNTLKMVAKKLGDQFKNKTITFSASSGGDPEIEKHTFNCGGEFFYCDTTKLFNSTWNETTWNENRENENDTDITIQCRIKQIINMWQEVGKAIYAPPIEGHIRCSSNITGLLLTRDGGINNNQSNTTEVFRPQGGDMKNNWRSELYKYKVVKIEPLGVAPTKAKRRVVQREKRAIVGLGAVFVGFLGAAGSTMGAASLTLTVQARQLLSGIVQQQSNLLRAIEAQQHLLQLTVWGIKQLQARILAVERYLTDQQLLGIWGCSGKLICNTAVPWNASWSNKSLDTIWENMTWMEWDREISNYTSLIYSLIEESQNQQEKNEQELLALDKWANLWSWFNISNWLWYIRIFIMIVGGLIGLRIVFAVLSIVNRVRQGYSPLSFQTHLPAQRGPDRPAGIGEEGGERDKDTSTPLVAGFLAILWVDLRSLCLFSYHRLRDLLLIVARIVELLGRRGWEILKYWWNLLQYWSQELKNSAVSLLNTTAIAVAEGTDRVIEAVQRACRAILHIPRRIRQGAERILV", "values": [{"measurement": "neutralization IC50", "setting": "antibody 10-1074 [1]", "value": 0.234, "unit": "µg/mL"}, {"measurement": "neutralization IC50", "setting": "antibody 3BNC117 [2]", "value": 0.578, "unit": "µg/mL"}, {"measurement": "neutralization IC80", "setting": "antibody 10-1074 [3]", "value": 0.487, "unit": "µg/mL"}, {"measurement": "neutralization IC80", "setting": "antibody 3BNC117 [4]", "value": 0.066, "unit": "µg/mL"}]}, {"binder": "HIV-1 Env, rebound clone, antibody arm (protein) MRVRGMLRNWQHLEKWGLLFLGLLIICSAKENLWVTVYYGVPVWKEATTTLFCASDAKGYEKEAHNVWATHACVPTDPNPQEIGLENVTENFNMWKNDMVEQMHTDIISLWDESLKPCVKITPLCVTLNCTDYCTTNCSEANDSSILEERKALQNCSFNMTTVVRDKKQKVSALFYRLDLTPLNNNNSSMEYRLITCNTSTITQACPKVSWDPIPIHYCAPAGYAILKCRDKKFNGTGPCKNVSTVQCTHGIKPVVSTQLLLNGSLAEEDIVIRSANISDNTKAIIVSLNESVLINCTRPNNNTRKGIHLGPGQTLYAAGEIVGNIRQAHCNIRGTQWNKTLERVRTKLSSLINKTIIFKPPVGGDLEVTMHSFTCRGEFFYCNTSGLFSESGNNSTSSNETIITLPCKIKQIINMWQGVGRAMYAPPVEGTITCNSNITGLLLTRDGGNNGTNDTFRPGGGDMRDNWRSELYKYKVVEIEPLGVAPTRARRQVVRRERRAVGIGAVFLGFLGAAGSTMGAASITLTVQARQLLSGIVQQQSNLLKAIEAQQHLLKLTVWGIKQLQARVLAVERYLKDQQLLGIWGCSGKLICTTNVPWNSSWSNRSYDEIWNNMTWIDWEREVGNYSQEIYRLIEQSQNQQEKNEQELLALDKWASLWNWFDITNWLWYIKIFIMIVGGLIGLRIVFTVLTIVNRVRKGYSPLSLQTLFPSPRGPDRPEGIGEEGGEQDRDRSVRLVNGFLSLVWDDLRSLCLFSYRQLRDFILIAARTVDRGLRRGWEALKYLWNLVKYWSQELKNSAISLFNSTAIVVAEGTDRIIEALQTGIRAVLHIPRRIRQGLERALL", "values": [{"measurement": "neutralization IC50", "setting": "antibody 10-1074 [1]", "value": "> 50", "unit": "µg/mL"}, {"measurement": "neutralization IC50", "setting": "antibody 3BNC117 [2]", "value": 0.064, "unit": "µg/mL"}, {"measurement": "neutralization IC80", "setting": "antibody 10-1074 [3]", "value": "> 50", "unit": "µg/mL"}, {"measurement": "neutralization IC80", "setting": "antibody 3BNC117 [4]", "value": 0.179, "unit": "µg/mL"}]}, {"binder": "HIV-1 Env, rebound clone, antibody arm (protein) MRVRGMLRNWQHLEKWGLLFLGLLIICSAKENLWVTVYYGVPVWKEATTTLFCASDAKGYEKEAHNVWATHACVPTDPNPQEIGLENVTENFNMWKNDMVEQMHTDIISLWDESLKPCVKITPLCVTLNCTDYCTTNCSKANDSSNLEERKALQNCSFNMTTVVRDKKQKVSALFYRLDLTPLNNNNSSMEYRLITCNTSTITQACPKVSWDPIPIHYCAPAGYAILKCRDKKFNGTGPCKNVSTVQCTHGIKPVVSTQLLLNGSLAEEDIVIRSANISDNTKAIIVSLNESVLINCTRPNNNTRKGIHLGPGQTLYAAGEIVGNIRQAHCNIRGTQWNKTLERVRTKLSSLINKTIIFKPPVGGDLEVTMHSFTCRGEFFYCNTSGLFSESGNNSTSSNETIITLPCKIKQIINMWQGVGRAMYAPPIEGTITCNSNITGLLLTRDGGNNGTNDTFRPGGGDMRDNWRSELYKYKVVEIEPIGVAPTRARRQVVRRERRAVGIGAVFLGFLGAAGSTMGAASITLTVQARQLLSGIVQQQSNLLKAIEAQQHLLKLTVWGIKQLQARVLAVERYLKDQQLLGIWGCSGKLICTTNVPWNSSWSNRSYDEIWNNMTWIDWEREVGNYSQEIYRLIEQSQNQQEKNEQELLALDKWASLWNWFDITNWLWYIKIFIMIVGGLIGLRIVFTVLTIVNRVRKGYSPLSLQTLFPSPRGPDRPEGIGEEGGEQDRDRSVRLVNGFLSLVWDDLRSLCLFSYRQLRDFILIAARTVDRGLRRGWEALKYLWNLVKYWSQELKNSAISLFNSTAIVVAEGTDRIIEALQTGIRAVLHIPRRIRQGLERALL", "values": [{"measurement": "neutralization IC50", "setting": "antibody 10-1074 [1]", "value": "> 50", "unit": "µg/mL"}, {"measurement": "neutralization IC50", "setting": "antibody 3BNC117 [2]", "value": 0.048, "unit": "µg/mL"}, {"measurement": "neutralization IC80", "setting": "antibody 10-1074 [3]", "value": "> 50", "unit": "µg/mL"}, {"measurement": "neutralization IC80", "setting": "antibody 3BNC117 [4]", "value": 0.141, "unit": "µg/mL"}]}]}
